Source: patent publication US20220089698A1, “ANTIBODIES THAT TARGET HIV GP120 AND METHODS OF USE” (published 2022)

Experiments:
Assay in all cases: cell-based or functional assay
[1] = target: HIV-1 envelope glycoprotein (gp120) of virus 7141 (HIV-1)
[2] = target: HIV-1 envelope glycoprotein (gp120) of virus VS001 (HIV-1)
[3] = target: HIV-1 envelope glycoprotein (gp120) of virus 92US727 (HIV-1)

Binder | Neutralization IC50 [1] | Neutralization IC50 [2] | Neutralization IC50 [3]
1.42.1-1 (antibody, human IgG1, kappa) heavy: QVHLLQSGAAVTKPGASVRVSCEASGYNIRDYFIHWWRQAPGQGLQWVGWINPKTGQPNNPRQFQGRVSLTRHASWDFDTFSFYMDLKALRSDDTAVYFCARQRSDYWDFDVWGSGTQVTVSSASTKGPSVFPLAPSSKSTSGGTAALGCLVKDYFPEPVTVSWNSGALTSGVHTFPAVLQSSGLYSLSSVVTVPSSSLGTQTYICNVNHKPSNTKVDKKVEPKSCDKTHTCPPCPAPELLAGPDVFLFPPKPKDTLMISRTPEVTCVVVDVSHEDPEVKFNWYVDGVEVHNAKTKPREEQYNSTYRVVSVLTVLHQDWLNGKEYKCKVSNKALPLPEEKTISKAKGQPREPQVYTLPPSREEMTKNQVSLTCLVKGFYPSDIAVEWESNGQPENNYKTTPPVLDSDGSFFLYSKLTVDKSRWQQGNVFSCSVLHEALHSHYTQKSLSLSPGK light: not shown | 2.34 µg/mL | 0.11 µg/mL | 0.98 µg/mL
1.47.1-1 (antibody, human IgG1, kappa) heavy: QVQLLQSGAAVTKPGASVRVSCEASGYNIRDYFIHWWRQAPGQGLQWVGWINPKTGQPNNPRQFQGRVSLTRQASWDFDTFSFYMDLKALRSDDTAVYFCARQRSDYWDFDVWGSGTQVTVSSASTKGPSVFPLAPSSKSTSGGTAALGCLVKDYFPEPVTVSWNSGALTSGVHTFPAVLQSSGLYSLSSVVTVPSSSLGTQTYICNVNHKPSNTKVDKKVEPKSCDKTHTCPPCPAPELLAGPDVFLFPPKPKDTLMISRTPEVTCVVVDVSHEDPEVKFNWYVDGVEVHNAKTKPREEQYNSTYRVVSVLTVLHQDWLNGKEYKCKVSNKALPLPEEKTISKAKGQPREPQVYTLPPSREEMTKNQVSLTCLVKGFYPSDIAVEWESNGQPENNYKTTPPVLDSDGSFFLYSKLTVDKSRWQQGNVFSCSVLHEALHSHYTQKSLSLSPGK light: not shown | 2.48 µg/mL | 0.24 µg/mL | 1.17 µg/mL
1.43.1-1 (antibody, human IgG1, kappa) heavy: QVQLSQSGAAVTKPGASVRVSCEASGYNIRDYFIHWWRQAPGQGLQWVGWINPKTGQPNNPRQFQGRVSLTRHASWDFDTFSFYMDLKALRSDDTAVYFCARQRSDYWDFDVWGSGTQVTVSSASTKGPSVFPLAPSSKSTSGGTAALGCLVKDYFPEPVTVSWNSGALTSGVHTFPAVLQSSGLYSLSSVVTVPSSSLGTQTYICNVNHKPSNTKVDKKVEPKSCDKTHTCPPCPAPELLAGPDVFLFPPKPKDTLMISRTPEVTCVVVDVSHEDPEVKFNWYVDGVEVHNAKTKPREEQYNSTYRVVSVLTVLHQDWLNGKEYKCKVSNKALPLPEEKTISKAKGQPREPQVYTLPPSREEMTKNQVSLTCLVKGFYPSDIAVEWESNGQPENNYKTTPPVLDSDGSFFLYSKLTVDKSRWQQGNVFSCSVLHEALHSHYTQKSLSLSPGK light: not shown | 2.42 µg/mL | 0.1 µg/mL | 3.35 µg/mL
1.50.1-1 (antibody, human IgG1, kappa) heavy: QVQLLQSGAAVTKPGASVRVSCEASGYNIRDYFIHWWRQAPGQGLQWVGWINPKTGQPNNPRQFQGRVSLTRHASWDFDTFSFYMDLKALRSDDTAIYFCARQRSDYWDFDVWGSGTQVTVSSASTKGPSVFPLAPSSKSTSGGTAALGCLVKDYFPEPVTVSWNSGALTSGVHTFPAVLQSSGLYSLSSVVTVPSSSLGTQTYICNVNHKPSNTKVDKKVEPKSCDKTHTCPPCPAPELLAGPDVFLFPPKPKDTLMISRTPEVTCVVVDVSHEDPEVKFNWYVDGVEVHNAKTKPREEQYNSTYRVVSVLTVLHQDWLNGKEYKCKVSNKALPLPEEKTISKAKGQPREPQVYTLPPSREEMTKNQVSLTCLVKGFYPSDIAVEWESNGQPENNYKTTPPVLDSDGSFFLYSKLTVDKSRWQQGNVFSCSVLHEALHSHYTQKSLSLSPGK light: not shown | 2.54 µg/mL | 0.14 µg/mL | 0.92 µg/mL
1.45.1-1 (antibody, human IgG1, kappa) heavy: QVQLLQSGAAVTKPGASVRVSCEASGYNISDYFIHWWRQAPGQGLQWVGWINPKTGQPNNPRQFQGRVSLTRHASWDFDTFSFYMDLKALRSDDTAVYFCARQRSDYWDFDVWGSGTQVTVSSASTKGPSVFPLAPSSKSTSGGTAALGCLVKDYFPEPVTVSWNSGALTSGVHTFPAVLQSSGLYSLSSVVTVPSSSLGTQTYICNVNHKPSNTKVDKKVEPKSCDKTHTCPPCPAPELLAGPDVFLFPPKPKDTLMISRTPEVTCVVVDVSHEDPEVKFNWYVDGVEVHNAKTKPREEQYNSTYRVVSVLTVLHQDWLNGKEYKCKVSNKALPLPEEKTISKAKGQPREPQVYTLPPSREEMTKNQVSLTCLVKGFYPSDIAVEWESNGQPENNYKTTPPVLDSDGSFFLYSKLTVDKSRWQQGNVFSCSVLHEALHSHYTQKSLSLSPGK light: not shown | > 50 µg/mL | 27.6 µg/mL | > 50 µg/mL
1.46.1-1 (antibody, human IgG1, kappa) heavy: QVQLLQSGAAVTKPGASVRVSCEASGYNIRDHFIHWWRQAPGQGLQWVGWINPKTGQPNNPRQFQGRVSLTRHASWDFDTFSFYMDLKALRSDDTAVYFCARQRSDYWDFDVWGSGTQVTVSSASTKGPSVFPLAPSSKSTSGGTAALGCLVKDYFPEPVTVSWNSGALTSGVHTFPAVLQSSGLYSLSSVVTVPSSSLGTQTYICNVNHKPSNTKVDKKVEPKSCDKTHTCPPCPAPELLAGPDVFLFPPKPKDTLMISRTPEVTCVVVDVSHEDPEVKFNWYVDGVEVHNAKTKPREEQYNSTYRVVSVLTVLHQDWLNGKEYKCKVSNKALPLPEEKTISKAKGQPREPQVYTLPPSREEMTKNQVSLTCLVKGFYPSDIAVEWESNGQPENNYKTTPPVLDSDGSFFLYSKLTVDKSRWQQGNVFSCSVLHEALHSHYTQKSLSLSPGK light: not shown | 2.44 µg/mL | 0.24 µg/mL | 1.68 µg/mL
1.49.1-1 (antibody, human IgG1, kappa) heavy: QVQLLQSGAAVTKPGASVRVSCEASGYNIRDYFIHWWRQAPGQGLQWVGWINPKTGQPNNPRQFQGRVSLTRHASWDFDTFSFYMDLKAVRSDDTAVYFCARQRSDYWDFDVWGSGTQVTVSSASTKGPSVFPLAPSSKSTSGGTAALGCLVKDYFPEPVTVSWNSGALTSGVHTFPAVLQSSGLYSLSSVVTVPSSSLGTQTYICNVNHKPSNTKVDKKVEPKSCDKTHTCPPCPAPELLAGPDVFLFPPKPKDTLMISRTPEVTCVVVDVSHEDPEVKFNWYVDGVEVHNAKTKPREEQYNSTYRVVSVLTVLHQDWLNGKEYKCKVSNKALPLPEEKTISKAKGQPREPQVYTLPPSREEMTKNQVSLTCLVKGFYPSDIAVEWESNGQPENNYKTTPPVLDSDGSFFLYSKLTVDKSRWQQGNVFSCSVLHEALHSHYTQKSLSLSPGK light: not shown | 2.98 µg/mL | 0.26 µg/mL | 2.41 µg/mL
1.51.1-1 (antibody, human IgG1, kappa) heavy: QVQLLQSGAAVTKPGASVRVSCEASGYNIRDYFIHWWRQAPGQGLQWVGWINPKTGQPNNPRQFQGRVSLTRHASWDFDTFSFYMDLKALRSDDTAVYFCARQRSDFWDFDVWGSGTQVTVSSASTKGPSVFPLAPSSKSTSGGTAALGCLVKDYFPEPVTVSWNSGALTSGVHTFPAVLQSSGLYSLSSVVTVPSSSLGTQTYICNVNHKPSNTKVDKKVEPKSCDKTHTCPPCPAPELLAGPDVFLFPPKPKDTLMISRTPEVTCVVVDVSHEDPEVKFNWYVDGVEVHNAKTKPREEQYNSTYRVVSVLTVLHQDWLNGKEYKCKVSNKALPLPEEKTISKAKGQPREPQVYTLPPSREEMTKNQVSLTCLVKGFYPSDIAVEWESNGQPENNYKTTPPVLDSDGSFFLYSKLTVDKSRWQQGNVFSCSVLHEALHSHYTQKSLSLSPGK light: not shown | 3.5 µg/mL | 0.22 µg/mL | 2.67 µg/mL
